Anti-infective test results gathered from many reports (values: NIAID ChemDB through PubChem).

Shared fields: cytotoxicity tests; cell line: C8166; measure: CC50

CCn is the concentration with n% toxicity to the cells. Rows are shuffled and stem from different studies.

| smiles | method | value |
|---|---|---|
| C/C=C/C(=O)O[C@@]12[C@H](O)[C@@H](C)[C@@]3(O)[C@@H](C=C(CO)C[C@]4(O)C(=O)C(C)=C[C@@H]34)[C@@H]1C2(C)C | MTT | >200 µM |
| CC1CC(=O)Nc2ccccc2N1C(=O)c1ccccc1Br | MTT / absorbance | >400 µM |
| C=CCOC(=O)CC(O)(CC(=O)O)C(=O)NCCCC[C@H](NC(=O)OCc1ccccc1)C(=O)N[C@@H](CCCCNC(=O)C(O)(CC(=O)O)CC(=O)OCC=C)C(=O)OCc1ccccc1 | XTT | 500 µM |
| CN1CCN(c2ccnc3nc(CN(CCCCN)Cc4c(O)cc(Cl)cc4Cl)[nH]c23)CC1 | MTT | >10 µM |
| Cc1cc(S(N)(=O)=O)ccc1NC(=O)COc1ccc(F)cc1Oc1ccc2ccccc2c1Br | MTT / absorbance | 39.52 µM |
| CC(=O)OCC1=C[C@H]2[C@@H]3C(C)(C)[C@]3(OC(C)=O)[C@H](OC(C)=O)[C@@H](C)[C@]2(O)[C@@H]2C=C(C)C(=O)[C@@]2(O)C1 | MTT | >200 µM |
| CC1CC(=O)Nc2ccccc2N1C(=O)c1ccc(Br)cc1 | MTT / absorbance | >400 µM |
| CCCCCCCCCCCCCCCCCCCC(=O)O[C@@H]1[C@@H](C)[C@@]2(O)[C@@H](C=C(CO)C[C@]3(O)C(=O)C(C)=C[C@@H]23)[C@@H]2C(C)(C)[C@]12OC(=O)CCCCCCCCCCCCCCCCCCC | MTT | >200 µM |
| CN(Cc1nc2ccccc2[nH]1)Cc1ncccc1CCCNC(=O)Cc1ccc(F)cc1 | MTT | 10 µM |
| NCCCC[C@H](NC(=O)[C@H](CCCCN)NC(=O)[C@H](CCCCN)NC(=O)c1ccccc1)C(N)=O | XTT | 300 µM |
| CN1CCN(c2ccnc3nc(CN(C)Cc4ncccc4CCC#N)[nH]c23)CC1 | MTT | >10 µM |
| Cc1cccc(C(=O)N2c3ccccc3NC(=O)CC2C)c1 | MTT / absorbance | >400 µM |
| O=C(CCCCCNC(=O)[C@H](CCCCNC(=O)c1cccc(O)c1C(=O)O)NC(=O)OCc1ccccc1)N[C@@H](CCCCNC(=O)c1cccc(O)c1C(=O)O)C(=O)OCc1ccccc1 | XTT | 40 µM |
| C.NCCCCN(Cc1nc2ccccc2[nH]1)C1CCCn2ccnc21 | MTT | >10 µM |
| Cc1cc(S(N)(=O)=O)ccc1NC(=O)COc1ccc(F)cc1Oc1ccc2ccccc2c1Cl | MTT / absorbance | 47.05 µM |
| CN1CCN(c2ccnc3nc(CN(C)Cc4ncccc4-c4ccccc4)[nH]c23)CC1 | MTT | >10 µM |
| O=C(O)CCC(=O)NCCCC[C@H](NC(=O)OCc1ccccc1)C(=O)OCc1ccccc1 | XTT | 250 µM |
| CC1CC(=O)Nc2ccccc2N1C(=O)c1ccccc1F | MTT / absorbance | >400 µM |
| NC(=O)[C@H](CCCCNC(=O)CCC(=O)O)NC(=O)[C@H](CCCCNC(=O)CCC(=O)O)NC(=O)[C@H](CCCCNC(=O)CCC(=O)O)NC(=O)c1ccccc1 | XTT | 200 µM |
| C/C=C/C(=O)O[C@@H]1[C@@H](C)[C@@]2(O)[C@@H](C=C(CO)C[C@]3(O)C(=O)C(C)=C[C@@H]23)[C@@H]2C(C)(C)[C@]12O | MTT | >200 µM |
| Cc1cc(S(N)(=O)=O)ccc1NC(=O)COc1ccc(Cl)cc1Oc1ccc2ccccc2c1Br | MTT / absorbance | 48.05 µM |
| CN1CCN(c2ccnc3nc(CN(CCCCN)Cc4ncccc4CCC#N)[nH]c23)CC1 | MTT | >10 µM |
| Cc1cc(S(N)(=O)=O)ccc1NC(=O)COc1ccc(Cl)cc1Oc1c(C)cc2ccccc2c1Cl | MTT / absorbance | 42.61 µM |
| CC1=C[C@H]2[C@@]3(O)[C@H](C)[C@@H](OC(=O)/C=C/c4ccccc4)[C@]4(O)[C@H]([C@@H]3C=C(CO)C[C@]2(O)C1=O)C4(C)C | MTT | 114 µM |
| Cc1cc(S(N)(=O)=O)ccc1NC(=O)COc1ccc(F)cc1Oc1ccc2ccccc2c1C | MTT / absorbance | 56.05 µM |
| Cc1ccccc1C(=O)N1c2ccccc2NC(=O)CC1C | MTT / absorbance | >400 µM |
| CN(Cc1ncccc1CCC#N)Cc1nc2ccccc2n1C(=O)OC(C)(C)C | MTT | >10 µM |
| CC1=C[C@H]2[C@@]3(O)[C@H](C)[C@@H](O)[C@]4(OC(=O)CCCCCN5CCN(C(=O)CC6(C)C(O)CCC7(C)C8CCC(=O)C8(C)CCC67)CC5)[C@H]([C@@H]3C=C(CO)C[C@]2(O)C1=O)C4(C)C | MTT | 16.4 µM |
| O=C(N[C@@H](CCCCNC(=O)c1c(O)cccc1C(=O)O)C(=O)OCc1ccccc1)OCc1ccccc1 | XTT | >500 µM |
| CCCCCCCCCCCCCCCCCCCC(=O)O[C@@H]1[C@@H](C)[C@@]2(O)[C@@H](C=C(CO)C[C@]3(O)C(=O)C(C)=C[C@@H]23)[C@@H]2C(C)(C)[C@]12O | MTT | >200 µM |
| Cc1cccnc1CN(C)Cc1nc2nccc(N3CCN(C)CC3)c2[nH]1 | MTT | >10 µM |

For reference, 4 entries again:

{"smiles": "CC1CC(=O)Nc2ccccc2N1C(=O)c1ccccc1Br", "method": "MTT / absorbance", "value": ">400 µM"}
{"smiles": "CN1CCN(c2ccnc3nc(CN(CCCCN)Cc4ncccc4CCC#N)[nH]c23)CC1", "method": "MTT", "value": ">10 µM"}
{"smiles": "CN1CCN(c2ccnc3nc(CN(CCCCN)Cc4c(O)cc(Cl)cc4Cl)[nH]c23)CC1", "method": "MTT", "value": ">10 µM"}
{"smiles": "Cc1ccccc1C(=O)N1c2ccccc2NC(=O)CC1C", "method": "MTT / absorbance", "value": ">400 µM"}